Measured values from several laboratories, pooled; numbers as filed in NIAID ChemDB.

Shared fields: growth or infection tests; organism: HIV-1

Neighbouring rows are from separate reports.

structure	read-out	read by	strain	conditions	mutations	cells	value
COC(=O)[C@H](C)NP(=O)(OC[C@H]1O[C@@H](n2cc(C)c(=O)[nH]c2=O)C[C@@H]1N=[N+]=[N-])Oc1ccc(Br)cc1	EC50	p24	-	-	-	PBMC	0.005 µM
O=S(=O)(O)c1ccc(-c2c3nc(c(-c4ccc(S(=O)(=O)O)cc4)c4ccc([n-]4)c(-c4ccncc4)c4ccc([n-]4)c(-c4ccc(S(=O)(=O)O)cc4)c4nc2C=C4)C=C3)cc1.[Na+]	EC50	RT activity	LAV	-	-	PBMC	<1 µM
Cc1cn([C@H]2C[C@H](N=[N+]=[N-])[C@@H](CO)O2)c(=O)[nH]c1=O	EC50	syncytia	IIIB	-	-	CEM	0.003 µg/mL
CN1CCC(C2Sc3ccccc3C(=O)N3CCCC23)CC1	EC50	cytopathic effect / XTT	-	-	-	CEM	>125 µM
O=C1N(Cc2ccc(CO)cc2)[C@H](Cc2ccccc2)[C@H](O)[C@@H](O)[C@@H](Cc2ccccc2)N1Cc1ccc(CO)cc1	EC50	cytopathic effect / XTT	IIIB	-	-	MT-4	0.12 µM
CCCCN1C(=O)[C@@H]([C@H](O)C2CCCCC2)NC(=O)C12CCN(Cc1ccc(Oc3ccc(C(=O)O)cc3)cc1)CC2	EC50	p24 / ELISA	BaL	-	-	PBMC	0.0007 µM
O=C(O)c1cn2c3c(c(N4CCN(c5ccccn5)CC4)c(F)cc3c1=O)OCC2CF	EC50	cytopathic effect / XTT	IIIB	-	-	MT-4	6.1 µg/mL
C[C@H]1[C@H](CO)C=C[C@@H]1n1ccc(N)nc1=O	EC50	-	-	-	-	MT-4	>100 µg/mL
CCN(CC)C(=O)/C=C/CSc1nc(N)cc(Cl)n1	EC50	p24	MF (DLV-resistant)	-	-	MT-4	<0.11 µM
Nc1nc2c(ncn2[C@H]2CO[C@@H](CO)O2)c(=O)[nH]1	EC50	p24	LAI	-	RT-D67N K70R T215Y K219Q	MT-2	0.58 µM
[N-]=[N+]=N[C@H]1C[C@H](n2cc(CO)c(=O)[nH]c2=O)O[C@@H]1CO	EC50	cytopathic effect / trypan blue	IIIB	-	-	MT-4	24 µM
Nc1cc(Cl)nc(SCc2cccc(Br)c2)n1	EC50	p24	RT-WT	-	-	MT-4	<0.35 µM
COC(=O)[C@H](C)NP(=O)(OC[C@@H]1C[C@]12C[C@@H]2n1cnc2c(N)ncnc21)Oc1ccccc1	EC50	RT activity	-	-	-	CEM + CEM-SS	3.5 µM
COc1cc2c(c(OC)c1OC)-c1c(cc(OC(C)=O)c(OC)c1OC)[C@H](OC)[C@@H](C)[C@@H](C)C2	EC50	MTT	-	-	-	C8166	2.26 µg/mL
C=C1CN(S(=O)(=O)c2ccc(C)cc2)CCCN(Cc2ccccc2)CCCN(S(=O)(=O)c2ccc(C)cc2)C1	EC50	p24	NL4-3	-	-	MT-4	<3.2 µM
Nc1ccn([C@@H]2CC[C@H](CO)O2)c(=O)n1	EC50	cytopathic effect / MTT	IIIB	-	-	MT-2	0.35 µM
O=c1c(O)c(-c2ccc(O)c(O)c2)oc2cc(O)cc(O)c12	EC50	p24 / ELISA	IIIB	-	-	MT-4	53 µg/mL
Cc1ccc(-c2ccc3c(c2)C=C(C(=O)Nc2ccc(C[N+](C)(C)C4CCOCC4)cc2)CCC3)cc1	EC90	p24 / ELISA	BaL	-	-	PBMC	0.332 µM
COc1ccc(OC)c2c1c(/C(O)=C/C(=O)C(=O)O)cn2Cc1ccc(F)cc1	EC50	MTT	IIIB	-	-	MT-4	2.13 µM
CC(=O)N1CCc2nc(C)n(C3C[C@H]4CC[C@@H](C3)N4CCC(CNS(=O)(=O)c3ccccc3)c3ccccc3)c2C1	EC50	luciferase	-	-	-	HOS-CD4-CCR5	<0.01 µM
Cc1cn([C@H]2C[C@H](N=[N+]=[N-])[C@@H](CO)O2)c(=O)[nH]c1=O	EC50	β-galactosidase	A018A	-	-	MAGI + MAGI-CCR5	0.0506 µM
O=c1[nH]cnc2c1ncn2[C@H]1CC[C@@H](CO)O1	EC50	p24	Isolate 6856	-	-	PBMC	1.87 µM
CC[n+]1ccc(C2=C3C=CC(=N3)C(c3cc[n+](CC)cc3)=C3C=CC(=C(c4cc[n+](CC)cc4)C4=NC(=C(c5cc[n+](CC)cc5)C5=CC=C2[NH2+]5)C=C4)[NH2+]3)cc1.[Cl-]	EC50	RT activity	LAV	-	-	PBMC	2 µM
Cc1cn([C@H]2C[C@H](N=[N+]=[N-])[C@@H](CO)O2)c(=O)[nH]c1=O	EC50	cytopathic effect / XTT	-	-	-	CEM + CEM-SS	0.003 µM
CC(C)(C)NC(=O)[C@@H]1C[C@@H]2CCCC[C@@H]2CN1C[C@@H](O)[C@H](Cc1ccccc1)NC(=O)[C@H](CC(N)=O)NC(=O)c1ccc2ccccc2n1	EC50	cytopathic effect / MTT	IIIB	-	-	MT-4	0.023 µM
CC1=C(CCC(=O)O)c2cc3nc(cc4[nH]c(cc5[nH]c(cc1n2)c(C)c5C(C)O)c(C)c4C(C)O)C(C)=C3CCC(=O)O	EC50	RT activity	LAV	-	-	PBMC	1.94 µM
Cc1cn([C@H]2C[C@H](N=[N+]=[N-])[C@@H](CO)O2)c(=O)[nH]c1=O	EC50	-	-	-	-	-	0.0061 µg/mL
Cc1nnc(C(C)C)n1C1C[C@H]2CC[C@@H](C1)N2CC[C@H](NC(=O)C1CCC(F)(F)CC1)c1ccccc1	EC50	luciferase	SF162	-	-	TZM-bl	0.00299 µM
CCOCn1c(Cc2ccccc2)c(C(C)C)c(=O)[nH]c1=O	EC50	syncytia	IIIB	-	-	CEM	0.002 µg/mL
Cc1cccc(CSc2nc(N)cc(Cl)n2)c1	EC50	p24	RT-WT	-	-	MT-4	<0.11 µM
CCN(C(=O)OCc1ccccc1)C1CCN(CC[C@](C)(CN(C)S(=O)(=O)c2ccccc2)c2ccccc2)CC1	EC50	p24	YU-2 (M-tropic)	-	-	PBMC	<0.5 µM
N#CC[C@H](C1CCCC1)n1cc(-c2ncnc3[nH]ccc23)cn1	EC50	p24 / ELISA	BaL	-	-	Macrophage	0.3 µM
Cc1cc(SC2=C(O)CC(CCc3ccccc3)(c3ccccc3)OC2=O)c(C(C)(C)C)cc1CO	EC50	cytopathic effect / XTT	RF	-	-	CEM + CEM-SS	0.5 µM
CC(C)(C)NC(=O)[C@@H]1CN(Cc2cnc3occc3c2)CCN1C[C@@H](O)C[C@@H](Cc1ccccc1)C(=O)N[C@H]1c2ccccc2C[C@H]1O	EC50	p24	-	-	-	MT-4	<0.025 µM
CCCCCCCCCCCCCCCC(=O)Nc1ccn([C@H]2C[C@H](OP(=O)(O)OC[C@H]3O[C@@H](n4cc(C)c(=O)[nH]c4=O)C[C@@H]3N=[N+]=[N-])[C@@H](CO)O2)c(=O)n1	EC50	MTT / p24	IIIB	-	-	H9	0.05 µM
Nc1ccn([C@@H]2CC[C@H](CO)S2)c(=O)n1	EC50	cytopathic effect / MTT	IIIB	-	-	MT-2	70 µM
Nc1ncnc2c1ncn2[C@@H]1C[C@](F)(CO)[C@H]1CO	EC50	cytopathic effect	IIIB	-	-	MT-4	3.73 µM
CN(C[C@@H](CCN1CCC2(CC1)CS(=O)c1ccccc12)c1cccc(Cl)c1)S(=O)(=O)c1ccccc1	EC50	p24	YU-2 (M-tropic)	-	-	PBMC	<12.5 µM
Cc1cn([C@H]2C[C@H](N=[N+]=[N-])[C@@H](CO)O2)c(=O)[nH]c1=O	EC50	p24	LAI	-	RT-D67N K70R T215Y K219Q K65R	MT-2	0.004 µM
Nc1nc(=O)n([C@@H]2CC[C@H](CO)O2)cc1F	EC50	cytopathic effect / MTT	IIIB	-	-	MT-2	0.007 µM
CCCCCCCCCCCCCCCCCOP(=O)(OC[C@H]1O[C@@H](O)[C@@H](O)[C@@H](O)[C@@H]1O)OC[C@H]1O[C@@H](n2cc(C)c(=O)[nH]c2=O)C[C@@H]1N=[N+]=[N-]	EC50	cytopathic effect / MTT	BRU	7 d	-	CEM-C113 + CEM/C113	<0.2 µM
CCO/N=C(\c1ccc(Br)cc1)C1CCN(C2(C)CCN(C(=O)c3c(C)cc[n+]([O-])c3C)CC2)CC1	EC50	p24 / ELISA	BaL	-	-	PBMC	0.0068 µM
CCC[C@@]1(CCc2ccccc2)CC(O)=C([C@H](CC)c2cccc(NS(=O)(=O)c3ccc(C(F)(F)F)cn3)c2)C(=O)O1	EC50	cytopathic effect / MTT	IIIB	-	-	MT-4	0.376 µM
Nc1nc(=O)n([C@@H]2CS[C@H](CO)O2)cc1F	EC50	syncytia	IIIB	-	-	CEM	0.003 µg/mL
Nc1ncnc2c1ncn2CCOCP(=O)(O)O	EC50	ELISA	LAI	-	-	MT-2	1.3 µM
CC1(C)S[C@H]([C@H](NC(=O)Cc2ccccn2)C(=O)NCc2ccccc2)N[C@H]1C(=O)NCCNC(=O)[C@@H]1N[C@@H]([C@H](NC(=O)Cc2ccccn2)C(=O)NCc2ccccc2)SC1(C)C	EC50	cytopathic effect / MTT	RF	-	-	MT-4	10 µM
O=C1CCCN1CCCN1CC(=O)N2CC(N(CCOc3ccccc3)S(=O)(=O)c3cccc(F)c3)C[C@H]2C1=O	EC50	luciferase	PLAI-JRFL PID2-27B	-	-	TZM-bl	>30 µM
O=c1[nH]cnc2c1ncn2[C@H]1CC[C@@H](CO)O1	EC50	syncytia	IIIB	-	-	CEM	3.5 µg/mL
CC(C)(C)OC(=O)N[C@@H](Cc1ccccc1)C[C@H](O)[C@H](Cc1ccccc1)NC(=O)c1cc(N)cc(N)c1	EC50	cytopathic effect / MTT	IIIB	-	-	MT-4	>92 µM
Cc1cn([C@H]2C=C[C@@H](CO)O2)c(=O)[nH]c1=O	EC50	p24	LAV	-	-	CEM	0.1 µM
COc1ccc2c(c1)N(C(=O)OC(C)C)[C@@H](CSC)C(=S)N2	EC50	syncytia	IIIB	-	-	CEM	0.001 µg/mL
CCCCCCCCCCCCCCCCOP(=O)(OCCO[C@@H]1O[C@H](CO)[C@@H](O)[C@H](O)[C@@H]1O)OC[C@H]1O[C@@H](n2cc(C)c(=O)[nH]c2=O)C[C@@H]1N=[N+]=[N-]	EC50	cytopathic effect / MTT	BRU	7 d	-	CEM-C113 + CEM/C113	<0.2 µM
COCc1cn([C@H]2C[C@H](N=[N+]=[N-])[C@@H](CO)O2)c(=O)[nH]c1=O	EC50	cytopathic effect / trypan blue	IIIB	-	-	MT-4	42 µM
CC(C)=CCN1Cc2cc(Cl)cc3[nH]c(=S)n(c23)C[C@@H]1C	EC50	-	-	-	RT-L74V Y181C	MT-4	<3 µM
O=c1[nH]cnc2c1ncn2[C@H]1CC[C@@H](CO)O1	EC50	p24	LAI	-	RT-K65R	MT-2	14.2 µM
Cc1cn([C@H]2C[C@@H](N=[N+]=[N-])[C@@H](CO)O2)c(=O)[nH]c1=O	EC50	MTT	IIIB	-	-	MOLT-4	0.015 µM
O=C1N[C@H](Cc2ccccc2)[C@H](O)CN(Cc2ccccc2)[C@H]1Cc1ccccc1	EC90	XTT	IIIB	-	-	MT-2	≤10 µg/mL

3 of the rows above, restated:

structure | read-out | read by | strain | conditions | mutations | cells | value
Cc1cn([C@H]2C[C@H](N=[N+]=[N-])[C@@H](CO)O2)c(=O)[nH]c1=O | EC50 | p24 | LAI | - | RT-D67N K70R T215Y K219Q K65R | MT-2 | 0.004 µM
Cc1cn([C@H]2C[C@H](N=[N+]=[N-])[C@@H](CO)O2)c(=O)[nH]c1=O | EC50 | - | - | - | - | - | 0.0061 µg/mL
CCO/N=C(\c1ccc(Br)cc1)C1CCN(C2(C)CCN(C(=O)c3c(C)cc[n+]([O-])c3C)CC2)CC1 | EC50 | p24 / ELISA | BaL | - | - | PBMC | 0.0068 µM

An empty or dashed field is not shown. ECn is the concentration giving n% inhibition of infection, replication or growth.